Anti-infective test results gathered from many reports (values: NIAID ChemDB through PubChem).

Shared fields: cytotoxicity tests; cell line: THP-1; read-out: CC50

An empty or dashed field is not shown. CCn: concentration that lowers growth or viability of the cells by n%. Rows are shuffled and stem from different studies.

SMILES | read by | value
O=C(COc1ncnc2sccc12)N/N=C/c1ccccc1[N+](=O)[O-] | MTT / absorbance | 2420 µM
O=[N+]([O-])c1cc(F)c(Cl)c2sc(/N=C3/CC(c4ccc(O)cc4)N(c4nc5ccc(F)c(Cl)c5s4)N3)nc12 | MTT | 432.5 µg/mL
C#CCSc1n[nH]c(-c2ccc([N+](=O)[O-])c(C)c2)n1 | - | >100 µg/mL
COc1cc(C2C/C(=N/c3nc4cc([N+](=O)[O-])c(F)c(Cl)c4s3)NN2c2nc3ccc(F)c(Cl)c3s2)ccc1O | MTT | 187.5 µg/mL
O=C(O)c1ccc(N2C(=O)c3cccc([N+](=O)[O-])c3C2=O)cc1O | visual reading / absorbance | >100 µg/mL
CN(C)c1ccc(/C=N/NC(=O)COc2ncnc3sccc23)cc1 | MTT / absorbance | 2490 µM
FC(F)(F)c1cccc(-c2nc(=S)[nH][nH]2)c1 | MTT | >100 µg/mL
O=C(NCCc1ccccc1)c1ccc2ccccc2n1 | WST | >100 µM
S=c1nc(-c2ccc(Cl)cc2)[nH][nH]1 | MTT | >100 µg/mL
Cc1cc2c(o1)C(=O)c1cc3ncsc3cc1C2=O | - | 1.466 µM
CCOC(=O)c1cc2c(OC)ccc(OC)c2[nH]1 | - | 0.096 µM
Cc1ccnc(NC(=O)NS(=O)(=O)c2cc(NC(=O)CCl)ccc2Cl)n1 | MTT | 138 µg/mL
Fc1ccc(-c2nc(=S)[nH][nH]2)cc1 | MTT | 69.74 µg/mL
CC1(C)CC2=C(O1)C(=O)C=CC2=O | - | 0.123 µM
C=CCSc1n[nH]c(-c2ccc(C(F)(F)F)cc2)n1 | - | 75.29 µg/mL
CC1(C)CC2=C(O1)C(=O)c1cc3scnc3cc1C2=O | - | 0.007 µM
C=CCSc1n[nH]c(-c2ccc([N+](=O)[O-])c(C(F)(F)F)c2)n1 | MTT | >100 µg/mL
Nc1nc2c(sc(=O)n2C/C=C\CO)c(=O)[nH]1 | - | >300 µM
CCCCSc1n[nH]c(-c2cccc([N+](=O)[O-])c2C)n1 | - | >100 µg/mL
CC(C)(C)OC(=O)NCCn1ccc2c1C(=O)C=CC2=O | - | 0.081 µM
COc1ccc(N(Cc2c(Cl)cccc2Cl)S(=O)(=O)c2cccc(C#N)c2)cc1C(=O)O | absorbance | >33 µM
FC(F)(F)c1ccc(Cl)c(-c2nc(=S)[nH][nH]2)c1 | MTT | 55.89 µg/mL
CO[C@@H]1[C@H](N(C)C(=O)c2ccccc2)C[C@@]2(C)O[C@]1(C)n1c3ccccc3c3c4c(c5c6ccccc6n2c5c31)C(=O)NC4 | fluorescence | >5 µM
COc1ccc(OC)c2c1ccn2CCN=[N+]=[N-] | - | 0.099 µM
CCCCOC(=O)c1cc([N+](=O)[O-])cc(C(F)(F)F)c1 | - | 552 µg/mL
CCSc1n[nH]c(-c2cccc([N+](=O)[O-])c2C)n1 | - | >100 µg/mL
O=C(Nc1ccccc1Cl)c1c(O)ccc2ccccc12 | - | >20 µM
COc1ccc(/C=N/NC(=O)COc2ncnc3sccc23)cc1 | MTT / absorbance | 2450 µM
COc1cc(C2C/C(=N/c3nc4c([N+](=O)[O-])cc(F)c(Cl)c4s3)NN2c2nc3ccc(F)c(Cl)c3s2)ccc1O | MTT | 412.5 µg/mL
CCOc1cc(C2SCC(=O)N2NC(=O)c2nccnc2N)ccc1O | MTT | 89.65 µg/mL
CC1(C)Cc2cccc(O)c2O1 | - | 0.01 µM